A short description of this data set: Therapeutic index, ratio of CC50 for african green monkey Vero E6 cells to EC50 for SARS coronavirus infected in african green monkey Vero E6 cells. Type of data set: cell-based.

For two compounds, Ratio CC50/EC50 results are on record in ChEMBL document CHEMBL3232931 (J Med Chem, 2014).

Consider `COc1cc(CNC(=O)C2CCN([C@H](C)c3cccc4ccccc34)CC2)ccn1`, for which the Ratio CC50/EC50 was greater than 10.5.
In the case of `C[C@H](c1cccc2ccccc12)N1CCC(C(=O)NCc2ccc3c(c2)OCO3)CC1`, the Ratio CC50/EC50 was greater than 7.8.
